These results are taken from patent US20090162366A1 (KIRIN PHARMA, published 2009).

For orientation: EC50 means the midpoint of the concentration-response curve. A high value points to a less potent agent.

Assay [1] has as its target T1, M2 expressed on MDCK cells infected with influenza A/HK/8/68 (influenza A virus A/HK/8/68).
T1 construct: whole, on cells
Briefly: cell ELISA on infected MDCK cells.

For the next assay, the target named is M2DLTGS (influenza A virus, A/Hong Kong/485/97 …). As to the kind of experiment: peptide ELISA, Ab 10 µg/ml (+ >50%, W 10~50% of O.D. on M2). Background: An ELISA detects its analyte on a solid surface through an enzyme-linked reagent.

B1: C40G4 (antibody, V domains shown)
VH: QLQLQESGPGLVKPSETLSLTCTVSGGSISSSFYYCGWIRQPPGKGLEWIGSIYYRGSTYYNPSLKSRVTISVDTSKNQFSLKLSSVTAADTAVYYCARRVTMVRGVKGDYFDYWGQGTLVTVSS
VL: DIQMTQSPSSLSASVGDRVTITCRASQGISSWLAWYQQKPEKVPKSLIYAASSLQSGVPSRFSGSGSGTDFTLTISSLQPEDFATYYCQQYNYYPLTFGGGTKVEIKR
In turn, B1 registered an EC50 in assay [1] of 0.841 µg/mL.

B2: C40G1 (antibody, V domains shown)
VH: QLQLQESGPGLVKPSETLSLTCTVSGGSISSSFYYCGWIRQPPGKGLEWIGSIYYRGSTYYNPSLKSRVTISVDTSKNQFSLKLSSVTAADTAVYYCARRVTMVRGVKGDYFDYWGQGTLVTVSS
VL: DIQMTQSPSSLSASVGDRVTITCRASQGISSWLAWYQQKPEKVPKSLIYAASSLQSGVPSRFSGSGSGTDFTLTISSLQPEDFATYYCQQYNYYPLTFGGGTKVEIKR
With B2, in the assay with M2DLTGS, the binding result is reported as “binds”. Moreover, the response in assay [1] was half-maximal at 0.0971 µg/mL (EC50).

B3: N547 (antibody, V domains shown)
VH: not shown
VL: QSVLTQPPSMSAAPGQKVTISCSGSSSNIGNNYISWYQQLPGTAPKVLIYDNNKRPSGIPDRFSGSKSGTSATLGITGLQTGDEADYYCGSWDSSLSAGVFGTGTKVTVLG
For B3, it took 0.466 µg/mL to reach a half-maximal effect in assay [1] (EC50).

B4: L66 (antibody, V domains shown)
VH: EVQLVESGGGVVRPGGSLRLSCAASGFTFDDYGMSWVRQAPGKGLEWVSGINWNGGSTGYADSVKGRFTISRDNAKNSLYLQMNSLRAEDTALYYCARDRVTMVRGVIMDYYGMDVWGQGTTVTVSS
VL: QTVVTQEPSLTVSPRGTVTLTCSSSTGAVTSGYYPGWFQLKPGQAPMSLIYSARKKHSWTPARFSGSLLGGKAALTLSGVQPEDEAEYYCLLYYGGAYVFGTGTKVTVLG
For B4, it took 0.229 µg/mL to reach a half-maximal effect in assay [1] (EC50).
